A mixed list of measured activities; the numbers were collected in NIAID ChemDB.

Shared fields: whole-cell or culture tests; agent: HIV-1

ECn: concentration that inhibits the pathogen or its effect by n%. Blank or dashed fields: not listed here. Conditions beyond the fields shown may differ between rows.

compound	measure	cells	changes	strain	read by	value
O=c1[nH]c(=O)n([C@H]2C=C[C@@H](CO)O2)cc1CO	EC50	CEM + CEM-SS	-	LAI	RT activity	0.1 µM
CC(C)(C)OC(=O)Nc1ccccc1C(=O)N1CCN(C(=O)C(=O)c2c[nH]c3cccc(F)c23)CC1	EC50	HeLa + HELA CD4+/CCR5	-	-	luciferase	~10 µM
CCCc1cc(=O)oc2c3c(c4c(c12)OC(C)(C)CC4)O[C@@H](C)[C@H](C)[C@@H]3O	EC50	CEM + CEM-SS	RT-Y181C	Diphenyl sulfone-resistant (RT-Y181C)	XTT	<0.01 µM
CN1CCN(CCSc2nnc(-c3ccc4ccccc4c3)c3ccccc23)CC1	EC50	PBMC	-	LAV-1	RT activity	12.2 µM
CCCCN1C(=O)N(Cc2ccc3[nH]nc(N)c3c2)[C@H](Cc2ccccc2)[C@H](O)[C@@H](O)[C@H]1Cc1ccccc1	EC50	-	-	RF	-	<0.056 µM
Cc1nc(CCCCCCC(=O)c2ccccc2)n2nc(Cl)ccc12	EC50	PBMC	-	IIIB	RT activity	0.9 µM
Cc1ccc2sn(/N=C/c3ccccc3[N+](=O)[O-])c(=O)c2c1	EC50	MT-4	K103N + Y181C	-	MTT	>100 µM
N#CC1=CC2Nc3ccccc3C2N(c2ccc([N+](=O)[O-])cc2)C1=O	EC50	HeLa	-	4755-5	GFP / fluorescence	0.12 µM
O=C(C(=O)N1CCN(C(=O)c2ccccn2)CC1)c1c[nH]c2cccc(F)c12	EC50	HeLa + HELA CD4+/CCR5	-	-	luciferase	<10 µM
Cc1ccc2sn(/N=C/c3cccc([N+](=O)[O-])c3)c(=O)c2c1	EC50	MT-4	-	-	MTT	48 µM
CN(C)CCSc1cccc(-c2cc(-c3cccs3)nc(SCCN(C)C)n2)c1	EC50	PBMC	-	LAV-1	RT activity	0.8 µM
O=Cc1ccc(F)c2c(C(=O)C(=O)N3CCN(C(=O)c4ccccc4)CC3)c[nH]c12	EC50	HeLa + HELA CD4+/CCR5	-	-	luciferase	<10 µM
Cc1nc(CCCCCCC(=O)c2ccccc2)n2nc(NCCCCCCCCN)ccc12	EC50	CEM + CEM TK-	-	LAI	RT activity	4.3 µM
CCCCCCCCC(=O)O[C@@]12[C@H](OC(=O)/C=C/c3ccc4c(c3)OCO4)[C@@H](C)[C@@]3(O)[C@@H](C=C(CO)C[C@]4(O)C(=O)C(C)=C[C@@H]34)[C@@H]1C2(C)C	EC50	C8166	-	IIIB	p24 / ELISA	0.0048 µM
CCOc1cccc2[nH]cc(C(=O)C(=O)N3CCN(C(=O)c4ccccc4)CC3)c12	EC50	HeLa + HELA CD4+/CCR5	-	-	luciferase	<10 µM
CCCCCCCCCCCCCC(=O)O[C@@H]1[C@@H](C)[C@@]2(O)[C@@H](C=C(COC(C)=O)C[C@]3(O)C(=O)C(C)=C[C@@H]23)[C@@H]2C(C)(C)[C@]12O	EC50	C8166	-	IIIB	p24 / ELISA	4.415 µM
O=c1c2ccccc2sn1/N=C/c1ccccc1O	EC50	MT-4	K103N + Y181C	-	MTT	>18 µM
CC1CN(C(=O)c2ccccc2)CCN1C(=O)C(=O)c1c[nH]c2cccc(F)c12	EC50	HeLa + HELA CD4+/CCR5	-	-	luciferase	<10 µM
O=c1c2ccccc2sn1/N=C/c1ccc([N+](=O)[O-])cc1	EC50	MT-4	-	-	MTT	45 µM
CCCC(=O)OCC1=C[C@H]2[C@@H]3C(C)(C)[C@]3(OC(=O)CCC)[C@H](OC(=O)/C=C/c3ccccc3)[C@@H](C)[C@]2(O)[C@@H]2C=C(C)C(=O)[C@@]2(O)C1	EC50	C8166	-	IIIB	p24 / ELISA	0.055 µM
Cc1cn([C@H]2C=C[C@@H](CO)O2)c(=O)[nH]c1=O	EC50	CEM + CEM-SS	-	LAI	RT activity	0.059 µM
COc1ccc(F)c2c(C(=O)C(=O)N3CCN(C(=O)c4ccccn4)C[C@H]3C)c[nH]c12	EC50	HeLa + HELA CD4+/CCR5	-	-	luciferase	<10 µM
CC(=O)O[C@@]12[C@H](OC(=O)/C=C/c3ccc4c(c3)OCO4)[C@@H](C)[C@@]3(O)[C@@H](C=C(CO)C[C@]4(O)C(=O)C(C)=C[C@@H]34)[C@@H]1C2(C)C	EC50	C8166	-	IIIB	p24 / ELISA	0.0225 µM
Cc1ccc2sn(/N=C/c3ccc(Cl)cc3)c(=O)c2c1	EC50	MT-4	-	-	MTT	24 µM
O=C(O)c1cc(-n2cccc2)ccc1Cl	EC90	MT-2	-	SF2 X4R5 CLADE B	p24	9.13 µM
Cc1cn([C@H]2C[C@H](N=[N+]=[N-])[C@@H](CO)O2)c(=O)[nH]c1=O	EC50	C8166	-	IIIB	p24 / ELISA	0.0054 µM
CN(C)CCNCc1ccc(-c2cccc(-c3ccc(CNCCN(C)C)cc3)n2)cc1	EC50	PBMC	-	LAV-1	RT activity	3.7 µM
COC(=O)c1cccc2c(C(=O)C(=O)N3CCN(C(=O)c4ccccc4)C(CC(C)C)C3)c[nH]c12	EC50	HeLa + HELA CD4+/CCR5	-	-	luciferase	<10 µM
Cc1ccc2sn(/N=C/c3ccc(O)cc3)c(=O)c2c1	EC50	MT-4	EFV-resistant (K103 V179D P225H)	-	MTT	>23 µM
Cc1nc(CCCCCCC(=O)c2ccccc2)n2nc(NCCCCCCCCNCc3cn([C@H]4C=C[C@@H](CO)O4)c(=O)[nH]c3=O)ccc12	EC50	CEM + CEM-SS	-	LAI	RT activity	0.06 µM
CN1CCN(CCSc2nccc(-c3ccc(-c4ccnc(SCCN5CCN(C)CC5)n4)s3)n2)CC1	EC50	PBMC	-	LAV-1	RT activity	17.5 µM
O=c1c2ccccc2sn1/N=C/c1ccc(O)cc1O	EC50	MT-4	-	-	MTT	>21 µM
CC1CC(C)CN(S(=O)(=O)c2ccccc2[N+](=O)[O-])C1	EC50	HeLa	-	F-93BR20	GFP / fluorescence	0.1 µM
Cc1nc(CCCCCCC(=O)c2ccccc2)n2nc(NCCCCCCCCCCCCNCc3cn([C@H]4C=C[C@@H](CO)O4)c(=O)[nH]c3=O)ccc12	EC50	CEM + CEM TK-	-	LAI	RT activity	6.5 µM
Cc1ccc2sn(/N=C/c3cccc(Cl)c3)c(=O)c2c1	EC50	MT-4	Y181C	-	MTT	>59 µM

The last 3 rows once more:

CC1CC(C)CN(S(=O)(=O)c2ccccc2[N+](=O)[O-])C1 ; measure: EC50 ; cells: HeLa ; strain: F-93BR20 ; read by: GFP / fluorescence ; value: 0.1 µM
Cc1nc(CCCCCCC(=O)c2ccccc2)n2nc(NCCCCCCCCCCCCNCc3cn([C@H]4C=C[C@@H](CO)O4)c(=O)[nH]c3=O)ccc12 ; measure: EC50 ; cells: CEM + CEM TK- ; strain: LAI ; read by: RT activity ; value: 6.5 µM
Cc1ccc2sn(/N=C/c3cccc(Cl)c3)c(=O)c2c1 ; measure: EC50 ; cells: MT-4 ; changes: Y181C ; read by: MTT ; value: >59 µM